Human monoclonal antibodies against the spike receptor-binding domain (heavy:light variable regions). IC50 against pseudoviruses bearing the spike of naturally observed variants; lower = stronger; >10 µg/ml means not reached at the top dose. No active / inactive call. The stated detection limit is 0.0005 µg/ml; values near or below 0.001 µg/ml lie at the floor of the assay.
What was measured:
Test in all cases: pseudovirus neutralization IC50; higher = weaker neutralization
[1] = target: SARS-CoV-2 Omicron BA.1 spike pseudovirus
Description: (§1)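 Single-round VSV luciferase pseudovirus mixed with antibody dilutions for 1 h and put on Huh-7 cells for about a day; IC50 from the dose curve.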

[2] = target: SARS-CoV-2 Omicron BA.2 spike pseudovirus
Description: as §1

[3] = target: SARS-CoV-2 Omicron BA.2.75 spike pseudovirus
Description: as §1

[4] = target: SARS-CoV-2 Omicron BA.5 spike pseudovirus
Description: as §1

[5] = target: SARS-CoV-2 Omicron BQ.1.1 spike pseudovirus
Description: as §1

[6] = target: SARS-CoV-2 Omicron XBB spike pseudovirus
Description: as §1

[7] = target: SARS-CoV-2 early D614G spike pseudovirus
Description: as §1

B1: BD57-0321 (protein)
chain 1: EVQLLESGGGLVQPGGSLRLSCSASGFTFRYSAINWVRQAPGKGLEWVSVISGSGDTTYYADSVKGRFTISRDNSMDTVYLEMNSLRAEDTAVYFCAKDRFAGPGGSVFEFWGQGTLVIVSA
chain 2: DIQMTQSPSSLSASVGDRVTITCQASQDITNFLNWYHQKPGKAPKLLIYDASNLETGVPSRFSGSASGTDFTLTISSLQPEDIATYYCQQYANLPYTFGQGTKLELK
pseudovirus neutralization IC50 [1]: 3.96 µg/mL
pseudovirus neutralization IC50 [2]: 3.81 µg/mL
pseudovirus neutralization IC50 [3]: 2.45 µg/mL
pseudovirus neutralization IC50 [4]: 2.91 µg/mL
pseudovirus neutralization IC50 [5]: > 10 µg/mL
pseudovirus neutralization IC50 [6]: > 10 µg/mL
pseudovirus neutralization IC50 [7]: > 10 µg/mL

B2: BD57-0348 (protein)
chain 1: QVQLVQSGAEVKKPGASVMVSCKASGNTFTNYYMHWVRQAPGQGLEWMGIINPSGGSTTYAQKFQGRVTMTGDTSTSTVYMDLSSLRSEDTAVYYCARGGIVPDARTAFDIWGQGTMVTVSS
chain 2: DIQMTQSPSTLSASVGDRVTITCRASQSISRWLAWYQQKPGKAPKLLIYKASSLESGVPSRFSGSGSGTEFTLTISSLQPDDFATYYCQHYNLYSTFGQGTKVEIK
pseudovirus neutralization IC50 [1]: > 10 µg/mL
pseudovirus neutralization IC50 [2]: > 10 µg/mL
pseudovirus neutralization IC50 [3]: > 10 µg/mL
pseudovirus neutralization IC50 [4]: > 10 µg/mL
pseudovirus neutralization IC50 [5]: > 10 µg/mL
pseudovirus neutralization IC50 [6]: > 10 µg/mL
pseudovirus neutralization IC50 [7]: > 10 µg/mL

B3: BD57-0328 (protein)
chain 1: QVQLVESGGGVVQPGRSLTLSCAASGFSFSSFAMHWVRQAPGKGLEWVAHISYDGSNKFYADSVKGRLTISRDNSKNTLFLQMKSLRVEDTAVYFCAKEQSQADSTAFYSPGFDYWGQGSLVTVSS
chain 2: SYVLTQPPSVSVAPGKTARITCGETNIGTKSVHWYQQKPGQAPVLVIYYDSDRPSGIPERFSGSNSGNTATLTISRVEAGDEADYYCQVWEVGPVFGTGTKVTVL
pseudovirus neutralization IC50 [1]: 1.81 µg/mL
pseudovirus neutralization IC50 [2]: 2.43 µg/mL
pseudovirus neutralization IC50 [3]: 2.9 µg/mL
pseudovirus neutralization IC50 [4]: 3.48 µg/mL
pseudovirus neutralization IC50 [5]: > 10 µg/mL
pseudovirus neutralization IC50 [6]: > 10 µg/mL
pseudovirus neutralization IC50 [7]: 3.23 µg/mL

B4: BD57-0327 (protein)
chain 1: QVQLVESGGGVVQPGRSLRLSCAASGFTFSNFDMHWVRQAPGKGLQWVAVISSGGNNKYYEDSVKARFTLSRDNAKNTLDLQMNSLRVEDTAVYFCAKEVRISDSSFMPDGFDLWGQGTLVTVSS
chain 2: SYVLTQAPSVSVAPGKTARITCGGDSIGSKNVHWYQQKPGQAPVLVITYDNDRPSGIPERFSGSNSGNTATLTISGVEAGDEADYYCQVWDIGVVFGGGTTLTVL
pseudovirus neutralization IC50 [1]: 7.83 µg/mL
pseudovirus neutralization IC50 [2]: 5.66 µg/mL
pseudovirus neutralization IC50 [3]: 3.22 µg/mL
pseudovirus neutralization IC50 [4]: > 10 µg/mL
pseudovirus neutralization IC50 [5]: > 10 µg/mL
pseudovirus neutralization IC50 [6]: > 10 µg/mL
pseudovirus neutralization IC50 [7]: > 10 µg/mL

B5: BD57-0341 (protein)
chain 1: QVHLQESGPGLVKPSETLSLTCSVSGGSIRSSYWSWIRQPPGQGLEWIGIMYFSGSTNYNPSLKSRVTISGDTSKNHLSLRLTSVTAADTAVYYCVTSGPNMNTPGGVIADDAFHIWGQGTMVIVSS
chain 2: DIQMTQSPSSLSASVGDRVTITCRASQTINNYLNWYQQKPGKAPKLLIYAASSLQSGVPSRFSASGSGTDFTLSVSSLQPEDFATYFCQQSFTMPWTFGQGTTVDIK
pseudovirus neutralization IC50 [1]: 0.0164 µg/mL
pseudovirus neutralization IC50 [2]: 0.0233 µg/mL
pseudovirus neutralization IC50 [3]: 0.0149 µg/mL
pseudovirus neutralization IC50 [4]: 0.0127 µg/mL
pseudovirus neutralization IC50 [5]: > 10 µg/mL
pseudovirus neutralization IC50 [6]: > 10 µg/mL
pseudovirus neutralization IC50 [7]: 0.00629 µg/mL

B6: BD57-0333 (protein)
chain 1: QVQLVQSGAEVRKPGSSVKVSCKASGGIFSNRYGISWVRQAPGQGLEWMGGIIAAFGTTNYAQKSQGRVTISADESTSTVYMEMSSLRSEDTAVYYCASGPPTYYDSWSGYSFDYWGQGTLVTVSS
chain 2: EIVLTQSPGTLSLSPGERVTLSCRASQIVNSDFLAWYQQKPGQAPRLLMYGTSSRATGIPDRFSGSGSGTDFTLTISRLEPEDFAVYYCQQYGSSPYTFGQGTKLDIK
pseudovirus neutralization IC50 [1]: 3.4 µg/mL
pseudovirus neutralization IC50 [2]: 3.42 µg/mL
pseudovirus neutralization IC50 [3]: 4.97 µg/mL
pseudovirus neutralization IC50 [4]: 4.78 µg/mL
pseudovirus neutralization IC50 [5]: > 10 µg/mL
pseudovirus neutralization IC50 [6]: 3.72 µg/mL
pseudovirus neutralization IC50 [7]: 3.45 µg/mL
